Experimental data: patent US5051403A (priority 1989, dated 1991)

Test system: ischemic gerbils, spontaneous motor activity
Experiment: Ischemia-induced hyperactivity in gerbils (Automex activity monitors)

SMILES: CSCC[C@@H]1NC(=O)[C@H](CC(C)C)NC(=O)[C@H](CCCNC(=N)N)NC(=O)[C@H](CO)NC(=O)[C@@H]2CSSC[C@@H]3NC(=O)[C@H](CO)NC(=O)CNC(=O)[C@H]([C@@H](C)O)NC(=O)[C@H](CSSC[C@H](N)C(=O)N[C@@H](CCCCN)C(=O)NCC(=O)N[C@@H](CCCCN)C(=O)NCC(=O)N[C@@H](C)C(=O)N[C@@H](CCCCN)C(=O)N2)NC(=O)[C@H](CSSC[C@@H](C(N)=O)NC(=O)[C@H](CCCCN)NC(=O)CNC(=O)[C@H](CO)NC(=O)[C@H](CCCNC(=N)N)NC3=O)NC(=O)[C@H](CC(=O)O)NC(=O)[C@H](Cc2ccc(O)cc2)NC1=O [MVIIA]
- spontaneous motor activity (in words) (occluded, treated animals, 1 day after occlusion): lower-than baseline values
- spontaneous motor activity (in words) (occluded, treated animals, three days after occlusion): near-normal levels of activity
- spontaneous motor activity (in words) (peptide in the absence of ischemia): reduces activity
